Experimental data taken from patent US12569473B2, “Methods to treat respiratory infection utilizing castanospermine analogs” (60 Degrees Pharmaceuticals, Inc., priority 2022, dated 2026).
Counter-ions that a name gives are not always drawn.

System: RSV strain A2
Test: CPE inhibition assay, visual examination, RSV
Assay type: cell-based
Settings: for SI50: visual examination, RSV, S.I. = 50% cytotoxic dose / EC50
Method: The efficacy of celgosivir and castanospermine against RSV and human rhinovirus-14 was assessed in vitro. For RSV studies, embryonic African green monkey kidney cells (MA-104) were grown in minimal essential medium (MEM) supplemented with 0.1% NaHCO3 and 10% fetal bovine serum. When performing antiviral assays, serum was reduced to 2% and […] gentamicin was added to the medium. RSV strain A2 was used for the studies. For rhinovirus studies, the HeLa Ohio cell line was used in place of MA-104 cells.
CPE inhibition assays with visual quantification of antiviral activity and cytotoxicity were performed as described by Sidwell and Huffman (1971) with slight modifications. Sidwell, R. W. and Huffman, J. H. (1971) Use of disposable micro-tissue culture plates for antiviral and interferon induction studies. Appl. Microbiol. 22, […]. […] All compounds were assayed for virus inhibition in quadruplicate and for cytotoxicity in duplicate. For rhinovirus studies, Pirodavir was applied at a concentration of 0.001-1 μg/ml as the positive control compound. For RSV studies, the positive control compound was Ribavirin applied at a concentration of 0.5-500 μg/ml. For each compound, two wells were set aside as uninfected, untreated cell controls per test and four wells per test received virus only and represented controls for virus replication. […] For all CPE-based assays, the 50% effective concentration (EC50) was calculated by regression analysis using the means of the CPE ratings at each concentration of compound. Morphological changes due to compound cytotoxicity were graded on a scale of 0-5; grade 5 was defined as 100% cytotoxicity. The 50% cytotoxic dose (IC50) was calculated by regression analysis. A selective index (S.I.) was calculated for each compound (SI.=(IC50)/(EC50)).

Row | SMILES | SI50 | SI50 against RSV
1 | NC(=O)c1ncn([C@@H]2O[C@H](CO)[C@@H](O)[C@H]2O)n1 [Ribavirin, reference compound] | 85 | 
2 | CCCC(=O)O[C@H]1CN2CC[C@H](O)[C@@H]2[C@@H](O)[C@@H]1O [Celgosivir HCL] | >8.1 | at least 8.1
